# PubChem BioAssay AID1259414 – Drosophila RNAi Screening Center – 2018
# Purpose: 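Host factors increasing or decreasing Wolbachia levels in cultured fly cells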 (primary screen)
# Cell system: Drosophila JW18 cells infected with Wolbachia
# Knock-down reagent: long dsRNA against Drosophila genes, 0.25 µg dsRNA per well of a 384-well plate
# Time to read-out: 5 days
# Conditions: cells persistently infected with Wolbachia before knock-down; no added drug
# Read-out: 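Imaged fluorescence in situ signal for Wolbachia 23S rRNA per DAPI-counted host cell, given as a robust z-score within each plate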
# Direction: Wolbachia per cell robust z: higher = more Wolbachia per host cell than the plate typical
# Hit rule: 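Hit when robust z is 1.5 or more, or -1.5 or less, in at least two of three replicates; excludes dsRNAs with several or no targets, genes not expressed in JW18 and well A1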
# The deposit covers about 24,000 reagents; shown is an unselected part of those with a known target gene and a result. Of all reagents, about 1,210 (5%) were called active. 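Inactive calls also include excluded dsRNAs with several or no targets, genes unexpressed in JW18, and well A1, regardless of score.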 Names joined by + are all predicted targets of the reagent. No sequences are given here.
Gene,amplicon,"Wolbachia per cell robust z, rep 1","Wolbachia per cell robust z, rep 2","Wolbachia per cell robust z, rep 3",outcome
nerfin-1 (nervous fingers 1),DRSC08729,-0.408,-0.715,-0.255,inactive
ppk19 (pickpocket 19),DRSC15321,-5.59,-0.925,0.53,inactive
CG4438,DRSC02746,-0.243,-3.49,0.548,inactive
CG4438,DRSC25747,-1.01,0.69,-3.53,inactive
Gr39b (Gustatory receptor 39b),DRSC01848,0.733,-0.305,-0.87,inactive
Gr39b (Gustatory receptor 39b),DRSC26464,0.319,-1.26,-1.21,inactive
PIG-H + Kmn2,DRSC12653,0.919,0.197,0.881,inactive
CG32512,DRSC20519,-0.925,0.0432,0.548,inactive
CG32512,DRSC20551,-0.603,-1.56,-1.66,active
CG32512,DRSC21401,-0.17,-1.18,-0.211,inactive
CG14506,DRSC14858,-4.42,0.048,-0.53,inactive
pyx (pyrexia),DRSC08510,-4.05,-3.65,-2.44,inactive
pyx (pyrexia),DRSC08511,-0.0862,-0.0982,-0.856,inactive
pyx (pyrexia),DRSC28167,0.619,-1.01,1.32,inactive
CG12507,DRSC19463,0.234,1.07,-0.836,inactive
Nhe2 (Na[+]/H[+] hydrogen exchanger 2),DRSC03172,-1.02,0.398,0.207,inactive
Nhe2 (Na[+]/H[+] hydrogen exchanger 2),DRSC03377,1.12,0.295,-0.162,inactive
CG42369,DRSC03244,-0.227,0.122,-0.35,inactive
Nrx-IV (Neurexin IV),DRSC11238,0.362,-0.162,0.601,inactive
Nrx-IV (Neurexin IV),DRSC40798,-1.74,-0.41,-0.957,inactive
CG31551,DRSC12159,0.403,0.567,-0.379,inactive
CG31551,DRSC22403,1.08,0.0272,0.373,inactive
CG31551,DRSC27808,-1.46,-1.54,-0.908,inactive
CG34435,DRSC18086,0.795,-1.47,-0.667,inactive
CG31380,DRSC15688,0.394,0.842,-1.21,inactive
Sol1,DRSC15263,-0.0371,-7.83,-3.95,inactive
Sol1,DRSC15271,-1.15,0.593,-0.58,inactive
Sol1,DRSC15681,-0.215,-0.185,-0.429,inactive
Cbp53E (Calbindin 53E),DRSC07356,-1.8,-6.01,-2.52,active
Cbp53E (Calbindin 53E),DRSC24679,-0.298,0.613,0.734,inactive
Cbp53E (Calbindin 53E),DRSC38954,-0.326,0.206,0.27,inactive
pad (poils au dos),DRSC14227,-3.44,-7.31,-0.681,active
pad (poils au dos),DRSC26048,1.27,1.3,-0.912,inactive
pad (poils au dos),DRSC41384,-2.75,-0.93,-0.443,inactive
CG14339,DRSC00369,-1.74,-0.918,-0.589,inactive
CG14339,DRSC26560,-0.605,-1.59,-1.77,inactive
Gr59b (Gustatory receptor 59b),DRSC04179,0.689,0.33,0.792,inactive
Rcd6 (Reduction in Cnn dots 6),DRSC06054,0.0167,0.855,0.382,inactive
Rcd6 (Reduction in Cnn dots 6),DRSC27115,-0.198,-0.379,-0.0355,inactive
CG8326,DRSC20103,0.32,0.508,0.19,inactive
CG8326,DRSC28368,0.347,-0.723,-8.41,inactive
CG12126,DRSC06103,-0.252,-0.982,-7.41,inactive
sqd (squid),DRSC15160,0.485,0.0258,0.37,inactive
sqd (squid),DRSC17066,0.62,-1.15,0.888,inactive
sqd (squid),DRSC22954,0.929,0.384,-0.659,inactive
sqd (squid),DRSC27200,-0.515,0.232,-6.12,inactive
sqd (squid),DRSC29779,-7.58,0.748,-1.05,inactive

4 neighbouring records from above, quoted:
Gene,amplicon,"Wolbachia per cell robust z, rep 1","Wolbachia per cell robust z, rep 2","Wolbachia per cell robust z, rep 3",outcome
CG8326,DRSC28368,0.347,-0.723,-8.41,inactive
CG12126,DRSC06103,-0.252,-0.982,-7.41,inactive
sqd (squid),DRSC15160,0.485,0.0258,0.37,inactive
sqd (squid),DRSC17066,0.62,-1.15,0.888,inactive
